{"source": "patent US20040116385A1", "about": "“Treating and preventing viral infections with porphyrin-based compounds” (priority 2002, published 2004)", "key": {"[1]": {"system": "human normal keratinocyte line HaCaT", "assay": "Intracellular localization by confocal fluorescence microscopy, HaCaT cells", "format": "cell-based", "settings": "2 μM, 6 or 24 hours"}, "[2]": {"system": "Rat 9L tumor cells", "assay": "Intracellular localization by confocal fluorescence microscopy, 9L cells", "format": "cell-based", "settings": "2 μM, 6 or 24 hours"}}}
{"substance": "meso-tetra[4-(1-methyl-nido-arboranyl)methylphenyl]porphyrin tetrapotassium salt [Compound 4]", "values": [{"measurement": "cells labeled (intracellular fluorescence)", "setting": "[1]", "value": 100, "unit": "%"}, {"measurement": "intracellular localization of fluorescence", "setting": "[1]", "value": "predominantly perinuclear"}, {"measurement": "cells labeled (intracellular fluorescence)", "setting": "[2]", "value": 100, "unit": "%"}, {"measurement": "intracellular localization of fluorescence", "setting": "[2]", "value": "predominantly perinuclear"}]}
